What was measured:
[1] = Plasma lipid mediator levels in reference plasma, healthy volunteers and sepsis patients (LC-MS-MS); format: in vivo, human; conditions: endogenous level; for Reference Plasma lipid mediator level: NIST SRM 1950 plasma, mean; for Healthy Volunteer lipid mediator level / Sepsis Patients Plasma lipid mediator level: plasma; for Healthy Volunteer lipid mediator level: n=4, mean; for Sepsis Patients Plasma lipid mediator level: n=9, mean
[2] = Peripheral blood lipid mediator profiles during self-resolving E. coli infections in mice; format: in vivo; conditions: endogenous level, E. coli 1×10^5 CFU/mouse
[3] = Peripheral blood lipid mediator profiles pre and post-exercise in healthy volunteers (LC-MS-MS); format: in vivo, human; conditions: endogenous level, mean, n=4

Question: What does the source list for `CC/C=C\C[C@H](O)/C=C/C=C\C/C=C\C=C\[C@@H](O)C/C=C\CCC(=O)O` [RvD5]?
Answer: Reference Plasma lipid mediator level [1]: 0.8 pg/mL; Healthy Volunteer lipid mediator level [1]: 0.9 pg/mL; Sepsis Patients Plasma lipid mediator level [1]: 17.0 pg/mL; lipid mediator level 0 h [2]: 22.7 pg/mL; lipid mediator level 4 h [2]: 16.9 pg/mL; lipid mediator level 12 h [2]: 25.1 pg/mL; lipid mediator level 24 h [2]: 8.7 pg/mL; lipid mediator level 48 h [2]: 9.2 pg/mL; Post-Exercise lipid mediator level [3]: 0.9 pg/mL; Pre-Exercise lipid mediator level [3]: 0.7 pg/mL

Question: What does the source list for `CC[C@@H](O)/C=C/C=C\C[C@@H](O)/C=C/C=C/C=C\[C@@H](O)CCCC(=O)O` [RvE1]?
Answer: Reference Plasma lipid mediator level [1]: * (*below limits; limits ~0.1 pg.); Healthy Volunteer lipid mediator level [1]: 2.2 pg/mL; Sepsis Patients Plasma lipid mediator level [1]: 11.0 pg/mL; lipid mediator level 0 h [2]: 0.6 pg/mL; lipid mediator level 4 h [2]: 0.2 pg/mL; lipid mediator level 12 h [2]: 2.2 pg/mL; lipid mediator level 24 h [2]: 0.6 pg/mL; lipid mediator level 48 h [2]: 2.7 pg/mL; Post-Exercise lipid mediator level [3]: 1.5 pg/mL; Pre-Exercise lipid mediator level [3]: 0.6 pg/mL

Question: With `CC[C@@H](O)/C=C/C=C\C/C=C\C/C=C\C=C\[C@@H](O)CCCC(=O)O` [RvE2] as the compound, how does the “Reference Plasma lipid mediator level” value [1] read?
Answer: The value was “* (*below limits; limits ~0.1 pg.)”.

Question: What about the “Healthy Volunteer lipid mediator level” value [1] of the same compound?
Answer: The value was 3.7 pg/mL.

Question: What about the “Sepsis Patients Plasma lipid mediator level” value [1] of the same compound?
Answer: The value was 24.7 pg/mL.

Question: What about the “lipid mediator level 0 h” value [2] of the same compound?
Answer: The value was 14.0 pg/mL.

Question: What about the “lipid mediator level 4 h” value [2] of the same compound?
Answer: The value was 88.5 pg/mL.

Question: What about the “lipid mediator level 12 h” value [2] of the same compound?
Answer: The value was 139.0 pg/mL.

Question: What about the “lipid mediator level 24 h” value [2] of the same compound?
Answer: Its value is 85.0 pg/mL.

Question: What about the “lipid mediator level 48 h” value [2] of the same compound?
Answer: The value was 44.4 pg/mL.

Question: And the “Post-Exercise lipid mediator level” value [3]?
Answer: Its value is 32.5 pg/mL.

Question: What about the “Pre-Exercise lipid mediator level” value [3] of the same compound?
Answer: The value was 39.1 pg/mL.

Question: Which “Reference Plasma lipid mediator level” value [1] does the source give for `CC[C@H](O)C(O)/C=C/C=C/C=C\C/C=C\C/C=C\CCCC(=O)O` (some centres unmarked) [RvE3] here?
Answer: Its value is 1.5 pg/mL.

Question: And the “Healthy Volunteer lipid mediator level” value [1]?
Answer: The value was 8.9 pg/mL.

Question: What about the “Sepsis Patients Plasma lipid mediator level” value [1] of the same compound?
Answer: The value was 361.3 pg/mL.

Question: And the “lipid mediator level 0 h” value [2]?
Answer: Its value is 39.4 pg/mL.

Question: And the “lipid mediator level 4 h” value [2]?
Answer: Its value is 229.4 pg/mL.

Question: And the “lipid mediator level 12 h” value [2]?
Answer: Its value is 356.3 pg/mL.

Question: What about the “lipid mediator level 24 h” value [2] of the same compound?
Answer: The value was 155.7 pg/mL.

Question: What about the “lipid mediator level 48 h” value [2] of the same compound?
Answer: Its value is 104.9 pg/mL.

Question: And the “Post-Exercise lipid mediator level” value [3]?
Answer: Its value is 69.3 pg/mL.

Question: And the “Pre-Exercise lipid mediator level” value [3]?
Answer: The value was 29.1 pg/mL.

Question: With `CCCCC[C@H](O)/C=C/[C@H]1OC(O)C[C@H](O)[C@@H]1C/C=C\CCCC(=O)O` (some centres unmarked) [TxB2] as the compound, how does the “Reference Plasma lipid mediator level” value [1] read?
Answer: Its value is 6.3 pg/mL.

Question: What about the “Healthy Volunteer lipid mediator level” value [1] of the same compound?
Answer: Its value is 10.5 pg/mL.

Question: What about the “Sepsis Patients Plasma lipid mediator level” value [1] of the same compound?
Answer: The value was 185.4 pg/mL.

Question: And the “lipid mediator level 0 h” value [2]?
Answer: Its value is 24.9 pg/mL.

Question: What about the “lipid mediator level 4 h” value [2] of the same compound?
Answer: The value was 1773.7 pg/mL.

Question: What about the “lipid mediator level 12 h” value [2] of the same compound?
Answer: The value was 471.4 pg/mL.

Question: And the “lipid mediator level 24 h” value [2]?
Answer: The value was 214.3 pg/mL.

Question: And the “lipid mediator level 48 h” value [2]?
Answer: The value was 176.5 pg/mL.

Question: And the “Post-Exercise lipid mediator level” value [3]?
Answer: The value was 36.2 pg/mL.

Question: And the “Pre-Exercise lipid mediator level” value [3]?
Answer: Its value is 4.8 pg/mL.

From US11555006B2, “Elucidation of novel 13-series resolvins that increase with atorvastatin and clear infections” (The Brigham and Women's Hospital, Inc., priority 2015, dated 2023)
